Data taken from US9403855B2 (priority 2010, dated 2016).

System: wild type (274H) neuraminidase of A/Hanoi/30408/2005 (H5N1) on 293T cells
Conditions: 274H:274Y=100:0; 10 nM ZB and excess OC at 300 nM

CC(=O)N[C@H]1[C@H]([C@H](OC(=O)NCc2cn(CCCCCNC(=O)CCCCC3SC[C@@H]4NC(=O)N[C@H]34)nn2)[C@H](O)CO)OC(C(=O)O)=C[C@@H]1NC(=N)N (stereo partly shown) [ZB] was tested, and the “percentage of ZB labeled cells (OC resistant ZB binding)” value was 1.00%.
